# Measured values as given in PubChem BioAssay AID565 (University of Pittsburgh Molecular Library Screening Center, 2006).
# Only a part is listed here, and it is no random draw. Active and inactive are the calls of the source. Cut-off read from the data, not from the text of the source: active = inhibition above about 50%; inactive = the rest.
# Biological target: Gag-Pol polyprotein (Human immunodeficiency virus type 1 group M subtype B (isolate HXB2)) (UniProt P04585)
# Experiment: HIV-1 RT RNase H inhibitors, primary screen, biochemical, fluorescence (AID 565)
# Conditions: RT-RNase H RNA/DNA duplex cleavage, at 10 µM, hits give high values
row,SMILES,inhibition
1,Cc1nc2ccc3ccccc3c2o1.O=[N+]([O-])c1cc([N+](=O)[O-])c(O)c([N+](=O)[O-])c1,inactive: 2.95%
2,COc1ccccc1OP(C)(=O)Nc1ccc(C)c(C)c1 (stereo not drawn),inactive: 2.05%
3,CP(=O)(Nc1ccccn1)Oc1ccccc1 (stereo not drawn),inactive: -9%
4,CP(=O)(Oc1ccccc1)N1CCOC1=O (stereo not drawn),inactive: 0.9%
5,COc1ccccc1OP(C)(=O)Nc1c(C)n(C)n(-c2ccccc2)c1=O (stereo not drawn),inactive: -7.01%
6,CCN(CC)CC(O)COC(=O)C(O)(c1ccccc1)C1CCCCC1 (stereo not drawn),inactive: -13.6%
7,CN(C)CCOC(=O)C(O)(c1ccccc1)C1CCCCC1 (stereo not drawn),inactive: -0.22%
8,Cc1ccccc1NP(C)(=O)Nc1ccccc1C,inactive: -13.6%
9,CP(=O)(Nc1ccc2c(c1)OCCO2)Oc1ccccc1 (stereo not drawn),inactive: -52.3%
10,CCOP(C)(=S)SCC(=O)NC(C)(CC)C(=O)O (stereo not drawn),inactive: 4.84%
11,CP(=O)(Nc1ccccc1F)Oc1ccccc1 (stereo not drawn),inactive: -27.8%
12,Cc1ccc(C)c(NP(C)(=O)Oc2ccccc2)c1 (stereo not drawn),inactive: -65.7%
13,Cc1nc2ccc3ccccc3c2s1.O=[N+]([O-])c1cc([N+](=O)[O-])c(O)c([N+](=O)[O-])c1,inactive: -30.4%
14,CP(=S)(Nn1cnnc1)Oc1ccccc1 (stereo not drawn),inactive: -2.26%
15,CCOP(C)(=S)SCC(=O)NC(C)C(=O)O (stereo not drawn),inactive: 1.87%
16,CP(=O)(NC(=O)Nc1ccccc1)Oc1ccccc1 (stereo not drawn),inactive: -12.2%
17,Cc1ccc(NP(C)(=O)Oc2ccccc2)c(C)c1 (stereo not drawn),inactive: -42.1%
18,COc1ccccc1OP(C)(=O)Nc1ccc(C)cc1 (stereo not drawn),inactive: -6.41%
